Measured values from several laboratories, pooled; numbers as filed in NIAID ChemDB.

Common to all: tests in culture; agent: Mycobacterium tuberculosis

Conditions beyond the fields shown may differ between rows.

SMILES	read-out	cell line	tested at	read by	strain	value
CC[C@H]1OC(=O)[C@H](C)[C@@H](O[C@H]2C[C@@](C)(OC)[C@@H](O)[C@H](C)O2)[C@H](C)[C@@H](O[C@@H]2O[C@H](C)C[C@H](N(C)C)[C@H]2O)[C@](C)(OC)C[C@@H](C)C(=O)[C@H](C)[C@@H](O)[C@]1(C)O	MBC				ATCC 35822	>8 µg/mL
O=c1oc2ccc(F)cc2c(=O)n1-c1ccc(Cl)cc1	MIC				CNCTC MY331/88	8 µM
COc1ccc(OC)c(CCNCCNCC(c2ccccc2)c2ccccc2)c1	MIC					6.25 µM
O=C1C(Cl)=C(Nc2ccc3cn[nH]c3c2)C(=O)c2ccccc21	MIC			BACTEC	H37Rv	6.25 µg/mL
CCOC(=O)Nc1cc(Cl)c2n[nH]nc2n1	EC50				H37Rv	>12.5 µg/mL
CO[C@H]1/C=C/O[C@@]2(C)Oc3c(C)c(O)c4c(O)c(c(/C=N/N5CCN(C)CC5)c(O)c4c3C2=O)NC(=O)/C(C)=C\C=C\[C@H](C)[C@H](O)[C@@H](C)[C@@H](O)[C@@H](C)[C@H](OC(C)=O)[C@@H]1C	MIC				PR455	0.04 µg/mL
O=c1oc2cc(Cl)ccc2c(=O)n1-c1ccccc1	MIC				CNCTC MY331/88	8 µM
COc1ccc(CSc2ccncc2)cc1	MIC				H37Ra	>12.8 µg/mL
CCCCCCCCCCCNCCNCc1ccccc1Sc1ccccc1CO	MIC					25 µM
COc1ccccc1CSc1ccncc1	inhibition		6.25 µg/mL		H37Rv	0%
CC(C)=CCC/C(C)=C/CNCCNCC(C)c1ccccc1	MIC					50 µM
O=C(CC(=O)c1ccccc1NC1=Cc2ccccc2C(=O)C1=O)C(=O)NC1=C(Cl)C(=O)c2ccccc2C1=O	MIC bound			BACTEC	H37Rv	>12.5 µg/mL
CCOc1cc(O)c(C(=O)/C=C/c2ccccc2)c(OCC)c1	EC50				H37Rv	>12.5 µg/mL
CC1CCCC(NCCNC[C@@H]2CC[C@H]3C[C@@H]2C3(C)C)C1C	MIC					6.25 µM
COc1ccc(/C=C/c2cc(O)cc(O[C@@H]3O[C@H](CO)[C@@H](O)[C@H](O)[C@H]3O)c2)cc1O	inhibition		12.8 µg/mL	BACTEC	H37Rv	-9%
CC[C@H]1OC(=O)[C@H](C)[C@@H](O[C@H]2C[C@@](C)(OC)[C@@H](O)[C@H](C)O2)[C@H](C)[C@@H](O[C@@H]2O[C@H](C)C[C@H](N(C)C)[C@H]2O)[C@](C)(O)C[C@@H](C)C(=O)[C@H](C)[C@@H](O)[C@]1(C)O	MIC				H37Rv	>8 µg/mL
CCOC(=O)Nc1cc2ncc(C(=O)N(C)c3ccccc3)nc2c(N)n1	EC50				H37Rv	>12.5 µg/mL
N[C@@H]1CONC1=O	Mean MIC				H37Rv	28.13 µg/mL
O=[N+]([O-])c1cccc(N/N=C/CCC/C=N/Nc2cccc([N+](=O)[O-])n2)n1	MIC bound			BACTEC	H37Rv	>12.5 µg/mL
Cc1ccccc1CSc1ncccn1	MIC90				H37Rv	>6.25 µg/mL
O=C1CC(c2ccccc2)Oc2ccc(I)cc21	EC50					>12.5 µg/mL
CO[C@H]1/C=C/O[C@@]2(C)Oc3c(C)c(O)c4c(O)c(c5c(c4c3C2=O)NC2(CCN(CC(C)C)CC2)N=5)=NC(=O)/C(C)=C\C=C\[C@H](C)[C@H](O)[C@@H](C)[C@@H](O)[C@@H](C)[C@H](OC(C)=O)[C@@H]1C	MIC50				30 isolates	0.063 µg/mL
COc1ccc(CNCCNCc2ccccc2Cl)c(OC)c1	MIC					50 µM
CO[C@H]1/C=C/O[C@@]2(C)Oc3c(C)c(O)c4c(O)c(c5c(c4c3C2=O)NC2(CCN(CC(C)C)CC2)N=5)=NC(=O)/C(C)=C\C=C\[C@H](C)[C@H](O)[C@@H](C)[C@@H](O)[C@@H](C)[C@H](OC(C)=O)[C@@H]1C	MBC				31 (rifampin-resistant)	0.8 µg/mL
Clc1ccccc1Sc1ncnc2nc[nH]c12	MIC90				H37Rv	>6.25 µg/mL
CC1COc2c(N3CCN(C)CC3)c(F)cc3c(=O)c(C(=O)O)cn1c23	MIC				001-013 (drug-resistant)	1 µg/mL
CCOC(=O)Nc1cc2n[nH]nc2c(Cl)n1	EC50				H37Rv	>12.5 µg/mL
Cc1ccc(Sc2nc(Cl)nc3nc[nH]c23)cc1C	inhibition		6.25 µg/mL		H37Rv	38%
N#CC1(c2nc3ccccc3o2)C(=O)C(=O)N(C2C3CC4CC(C3)CC2C4)C(=O)C1=O	MIC	VERO		resazurin	H37Rv	6.25 µg/mL
NNC(=O)c1ccncc1	MIC				Strain 474	8 µg/mL
CC(NC(=O)C(=O)NN)c1ccccc1	inhibition		12.5 µg/mL	BACTEC	H37Rv	5%
CCCCC(CC)CN1CN(CC(CC)CCCC)CC(C)(NCCNCCc2cccc(F)c2)C1	MIC					12.5 µM
CO[C@H]1/C=C/O[C@@]2(C)Oc3c(C)c(O)c4c(O)c(c(/C=N/N5CCN(C6CCCC6)CC5)c(O)c4c3C2=O)NC(=O)/C(C)=C\C=C\[C@H](C)[C@H](O)[C@@H](C)[C@@H](O)[C@@H](C)[C@H](OC(C)=O)[C@@H]1C	MIC				1027	0.04 µg/mL
CC#CC#C/C(=C/C=C/C(=O)OC)SC	MIC bound			BACTEC	H37Rv	>12.5 µg/mL
CCOC(=O)Nc1cc(NC(C)[C@@H](O)c2ccc(O)cc2)c(N)c(N)n1	EC50				H37Rv	>12.5 µg/mL
O=c1oc2cc(Cl)ccc2c(=O)n1-c1ccc(C(F)(F)F)cc1	MIC				CNCTC MY331/88	2 µM
CC(CNC[C@@H]1CC[C@H]2C[C@@H]1C2(C)C)NCCC(c1ccccc1)c1ccccc1	MIC					12.5 µM
COc1ccc(C2CC(=O)c3ccccc3O2)cc1	inhibition		12.5 µg/mL		H37Rv	29%
NNC(=O)c1ccncc1	Mean MIC				H37Ra	0.05 µg/mL
NC1CCN(c2c(F)cc3c(=O)c(C(=O)O)cn(C4CC4)c3c2Cl)C1	MIC				ATCC 35830	0.125 µg/mL
CCOC(=O)N1N=NC2C3OC(C[C@@]3(C#N)OC(C)=O)[C@H]21	MIC bound			BACTEC	H37Rv	≤12.5 µg/mL
CO[C@H]1/C=C/O[C@@]2(C)Oc3c(C)c(O)c4c(O)c(c(/C=N/N5CCN(C/C=C/c6ccccc6)CC5)c(O)c4c3C2=O)NC(=O)/C(C)=C\C=C\[C@H](C)[C@H](O)[C@@H](C)[C@@H](O)[C@@H](C)[C@H](OC(C)=O)[C@@H]1C	MBC				33 (rifampin-resistant)	0.2 µg/mL
COc1cc(CSc2nc(=O)[nH]c3nc[nH]c23)cc(OC)c1	MIC90				H37Rv	>6.25 µg/mL
COc1ccc(CCC2CCc3ccccc3N2C)cc1OC	MIC				MT6	>100 µg/mL
CN(C)C1=NC2=S(SC(Nc3ccccc3)=N2)S1	MIC bound			resazurin	H37Rv	>6.25 µg/mL
Cc1cc(-c2cc3c(cc2F)c(=O)c(C(=O)O)cn3C2CC2)cc(C)n1	MBC				H37Rv	16 µg/mL
CCCCC(CC)CN1CN(CC(CC)CCCC)CC(C)(NCCNCCc2ccc(OC)c(OC)c2)C1	MIC					6.25 µM
Clc1nc(Sc2ccccc2Cl)c2[nH]cnc2n1	MIC90				H37Rv	>6.25 µg/mL
CC(CNCC(c1ccccc1)c1ccccc1)N[C@@H]1C[C@@H]2C[C@H]([C@H]1C)C2(C)C	MIC					50 µM
Cc1cc(/C=N/Nc2ccc3cccc(O)c3n2)c(O)c2ncccc12	inhibition		12.5 µg/mL	BACTEC	H37Rv	5%
CCCOC(=O)Nc1cc(NC(c2ccccc2)c2ccccc2)c2nc(-c3cc(OC)c(OC)c(OC)c3)c(-c3cc(OC)c(OC)c(OC)c3)nc2n1	EC50				H37Rv	>12.5 µg/mL
Clc1ccc(CCNCCNC2CCCCC2)c(Cl)c1	MIC					50 µM
COc1ccccc1NC(=O)C(N=Nc1ccc(S(=O)(=O)Nc2nccc(C)n2)cc1)C(C)=O	inhibition		6.25 µg/mL	resazurin	H37Rv	-7%
CO[C@H]1/C=C/O[C@@]2(C)Oc3c(C)c(O)c4c(O)c(c(/C=N/N5CCN(C)CC5)c(O)c4c3C2=O)NC(=O)/C(C)=C\C=C\[C@H](C)[C@H](O)[C@@H](C)[C@@H](O)[C@@H](C)[C@H](OC(C)=O)[C@@H]1C	MIC				TN994	16 µg/mL
COc1c(N2CCNC(C)C2)c(F)cc2c(=O)c(C(=O)O)cn(C3CC3)c12	MIC				Strain 361	0.25 µg/mL
O=C(c1cccc(C(=O)c2ccc3c4c(cccc24)C(=O)N(c2ccccc2)C3=O)c1)c1ccc2c3c(cccc13)C(=O)N(c1ccccc1)C2=O	inhibition		12.5 µg/mL	BACTEC	H37Rv	6%
COc1ccc(CNCCNC[C@@H]2CC[C@H]3C[C@@H]2C3(C)C)c(OC)c1	MIC					50 µM
CO[C@H]1/C=C/O[C@@]2(C)Oc3c(C)c(O)c4c(O)c(c(/C=N/N5CCN(C)CC5)c(O)c4c3C2=O)NC(=O)/C(C)=C\C=C\[C@H](C)[C@H](O)[C@@H](C)[C@@H](O)[C@@H](C)[C@H](OC(C)=O)[C@@H]1C	Mean MIC				H37Rv	0.11 µg/mL
CCN(CCO)CCNc1ccc(C)c2sc3cc(Cl)ccc3c(=O)c12	MIC	VERO		BACTEC	H37Rv	3.13 µg/mL
CCCCCCCCCCCNCCNC1CCCCCCC1	MIC					12.5 µM
CC(=O)NC1C(Sc2ncn(C3OC(CO)C(O)C(O)C3NC(C)=O)n2)OC(CO)C(O)C1O	inhibition		6.25 µg/mL	resazurin	H37Rv	-3%
CCCCCCCCSc1nc(Cl)nc2nc[nH]c12	MIC90				H37Rv	>6.25 µg/mL
COc1ccc(C2CC(=O)c3ccc(F)cc3O2)cc1	inhibition		12.5 µg/mL			0%
CC(=O)O[C@H]1C(=O)[C@]2(C)[C@@H](OC(C)=O)C[C@H]3OC[C@@]3(OC(C)=O)[C@H]2[C@H](OC(=O)c2ccccc2)[C@]2(O)C[C@H](OC(=O)[C@H](OC(C)=O)[C@@H](NC(=O)c3ccccc3)c3ccccc3)C(C)=C1C2(C)C	inhibition		12.5 µg/mL	BACTEC	H37Rv	95%
CCOC(=O)Nc1cc(NC(=O)OCC)c([N+](=O)[O-])c(NC(c2ccccc2)c2ccccc2)n1	EC50				H37Rv	>12.5 µg/mL
O=c1oc2ccc(F)cc2c(=O)n1-c1cccc(Cl)c1	MIC				CNCTC MY331/88	16 µM
C[C@@H]1CN(c2c(F)c(N)c3c(=O)c(C(=O)O)cn(C4CC4)c3c2F)C[C@H](C)N1	Mean MIC				H37Ra	0.12 µg/mL
Clc1ccc2c(c1)N(CCCN1CCCC13CCCCC3)c1ccccc1S2	MIC			BACTEC	H37Rv	12.5 µg/mL
CC1CCC(NCCNC2CCCCCCC2)CC1	MIC					50 µM
Cc1cc(O)c(C(=O)CC2(O)C(=O)Nc3c(Cl)cc(Cl)cc32)c(=O)o1	inhibition		12.5 µg/mL	BACTEC	H37Rv	-8%
C=CCNCCNC(C)CO	MIC					50 µM
CCCCCCCCCCCNCCNC(C)Cc1ccc(Cl)cc1	MIC					50 µM
COc1ccc(C(=O)/C=C/c2ccco2)c(O)c1	inhibition		12.5 µg/mL			3%
Cc1c(N=Nc2cccc(F)c2)c(-c2ccccc2)nn1C(=S)S	MIC bound			BACTEC	H37Rv	≤128 µg/mL
COc1ccc(C2CC(=O)c3c(OC)cc(OC)c(I)c3O2)cc1	inhibition		12.5 µg/mL			0%
CCn1cc(C(=O)O)c(=O)c2cc(F)c(N3CCN(Cn4c(O)c(N=NC(=O)c5ccncc5)c5cc(Cl)ccc54)CC3)cc21	inhibition		6.25 µg/mL	resazurin	H37Rv	97%
CCCCCc1cc(OC)c2ccccc2n1	MIC				MT1	6.25 µg/mL
CCOc1ccc2c(c1)[n+]([O-])c(S(=O)(=O)c1ccc(C)cc1)c(N)[n+]2[O-]	MIC				PAS-R	>12.5 µg/mL
C[C@H]1COc2c(N3CCN(C)CC3)c(F)cc3c(=O)c(C(=O)O)cn1c23	MBC				ATCC 35830	2 µg/mL

Repeating the final 12 entries:

SMILES	read-out	cell line	tested at	read by	strain	value
Clc1ccc2c(c1)N(CCCN1CCCC13CCCCC3)c1ccccc1S2	MIC			BACTEC	H37Rv	12.5 µg/mL
CC1CCC(NCCNC2CCCCCCC2)CC1	MIC					50 µM
Cc1cc(O)c(C(=O)CC2(O)C(=O)Nc3c(Cl)cc(Cl)cc32)c(=O)o1	inhibition		12.5 µg/mL	BACTEC	H37Rv	-8%
C=CCNCCNC(C)CO	MIC					50 µM
CCCCCCCCCCCNCCNC(C)Cc1ccc(Cl)cc1	MIC					50 µM
COc1ccc(C(=O)/C=C/c2ccco2)c(O)c1	inhibition		12.5 µg/mL			3%
Cc1c(N=Nc2cccc(F)c2)c(-c2ccccc2)nn1C(=S)S	MIC bound			BACTEC	H37Rv	≤128 µg/mL
COc1ccc(C2CC(=O)c3c(OC)cc(OC)c(I)c3O2)cc1	inhibition		12.5 µg/mL			0%
CCn1cc(C(=O)O)c(=O)c2cc(F)c(N3CCN(Cn4c(O)c(N=NC(=O)c5ccncc5)c5cc(Cl)ccc54)CC3)cc21	inhibition		6.25 µg/mL	resazurin	H37Rv	97%
CCCCCc1cc(OC)c2ccccc2n1	MIC				MT1	6.25 µg/mL
CCOc1ccc2c(c1)[n+]([O-])c(S(=O)(=O)c1ccc(C)cc1)c(N)[n+]2[O-]	MIC				PAS-R	>12.5 µg/mL
C[C@H]1COc2c(N3CCN(C)CC3)c(F)cc3c(=O)c(C(=O)O)cn1c23	MBC				ATCC 35830	2 µg/mL

Inhibition is in % at the dose shown (toxicity tests: loss of growth or viability). Blank or dashed fields: not listed here. A number after MIC or MFC names an inhibition level or a share of isolates. MIC bound comes from a single tested concentration. ECn is the concentration giving n% inhibition of infection, replication or growth.